PMC7179312 (Antimicrobial Agents and Chemotherapy, 2020)
Like-named read-outs stand apart in the source and are kept apart here.

Assays:
KPC-2 D179Y = target: T1, KPC-2 D179Y (Klebsiella pneumoniae, UniProt Q9F663, D178Y); experiment: Kinetics of nitrocefin and ceftazidime hydrolysis by purified enzyme; format: biochemical
T1 construct: 6xHis (C); made in house; host or cells: E. coli BL21(DE3) pLys, pET28a
Procedure: (§1) Enzymes were mixed with various concentrations of nitrocefin in 50 mM sodium phosphate (pH 7.0)–0.1 mg/ml of bovine serum albumin (buffer A), and substrate cleavage was monitored at 490 nm every 10 s for 10 min at 37°C on a SpectraMax plate reader (Molecular Devices, San Jose, CA). Initial rates of nitrocefin cleavage were calculated and used to obtain Km and kcat values with Prism software (GraphPad, San Diego, CA).
(§2) Substrate cleavage was monitored at 260 nm every 30 s at room temperature using a SpectraMax plate reader. The reaction was monitored until OD260 values reached a plateau. Resulting OD260 versus time reaction profiles were fitted to the following equation using Prism software: At = A∞ + (A0 − A∞) × e^−k×t, where At is absorbance at time t, A0 is initial absorbance, and A∞ is final absorbance. In this equation, k = kcat/Km × [E], which allows calculatation of kcat/Km knowing the enzyme concentration ([44]).

KPC-2 = target: T2, KPC-2 (Klebsiella pneumoniae, UniProt Q9F663); experiment: as above; format: biochemical; conditions: substrate hydrolysis by purified KPC-2
T2 construct: 6xHis (C); made in house; host or cells: E. coli BL21(DE3) pLys, pET28a
Procedure: as §1, §2

KPC-2 L169P = target: T3, KPC-2 L169P (Klebsiella pneumoniae, UniProt Q9F663, L168P); experiment: as above; format: biochemical; conditions: substrate hydrolysis by purified KPC-2 L169P
T3 construct: 6xHis (C); made in house; host or cells: E. coli (pET28a construct; BL21(DE3) pLys is named only for wild type and D179Y)
Procedure: as §1, §2

[1] = system: P. aeruginosa PAM1154 carrying pUCP24-KPC-2::D179Y (PAM4639); experiment: MIC, CLSI broth microdilution; format: cell-based, Pseudomonas aeruginosa
From the text: (§3) The effects of KPC mutations on resistance to various antibiotics were investigated. For these studies, pUCP24 plasmids carrying wild-type and mutant blaKPC-2 genes as well as the pUCP24 vector were transformed into PAM1154, an efflux-deficient strain of Pseudomonas aeruginosa. In this host, the effect of β-lactamases on β-lactam MIC is amplified due to the slowed uptake of β-lactams across the low-permeability outer membrane without interference by efflux of either β-lactams or BLIs. Consequently, this host allows detection of β-lactamase activity (as an MIC increase) of low-catalytic-efficiency enzymes that rely heavily on the low permeability of the outer membrane. Using the strain that lacks efflux pumps ensures no interference from efflux in interpreting results. We next evaluated the steady-state protein expression levels in bacterial cells.
(§4) For microbiological studies, wild-type blaKPC-2 and its mutant variants were cloned into the shuttle vector pUCP24. Resulting plasmids were transformed in the efflux-deficient strain of P. aeruginosa PAM1154 using selection on 15 μg/ml of gentamicin. Using a strain of P. aeruginosa as opposed to E. coli as a host for various cloned genes was based on the following consideration. As well documented elsewhere ([41]), P. aeruginosa has a low-permeability outer membrane; consequently, the effect of β-lactamases on MIC is amplified in P. aeruginosa compared to that in E. coli due to the slowed uptake of β-lactams. Thus, this host is appropriate to detect β-lactamase activity (as an MIC increase) of low-catalytic-efficiency enzymes that rely heavily on low permeability of the outer membrane. […] MICs were determined using the Clinical and Laboratory Standards Institute (CLSI) broth microdilution method as described in CLSI document M07-A11 ([42]). […] BLI potency was defined as PV50 (PV, potentiation value). PV50 is the minimal concentration of a BLI that is required to reduce the antibiotic MIC to the middle of the MIC range (E50) where the highest MIC is the MIC for a KPC-producing strain with no inhibitor added and the lowest MIC is the MIC for the vector-only strain, corresponding to the complete inhibition of KPC. E50 is calculated as the square root of the product of the antibiotic MICs for the KPC-producing and the vector-only strains.

[2] = system: P. aeruginosa PAM1154 carrying pUCP24-KPC-2::L169P (PAM4751); experiment: MIC, CLSI broth microdilution; format: cell-based, Pseudomonas aeruginosa
From the text: as §3, §4

[3] = system: P. aeruginosa PAM1154 carrying KPC-2::L169P (PAM4751); experiment: Checkerboard potentiation of antibiotic activity by BLIs; format: cell-based, Pseudomonas aeruginosa; conditions: for Beta-lactam MIC in the presence of BLI: PAM4751 KPC-2 L169P
From the text: (§5) BLI potency was defined as PV50 (PV, potentiation value) of antibiotic potentiation. PV50 is the concentration of a BLI that is required to reduce the antibiotic MIC to the middle of the MIC range where the highest MIC is the MIC for a KPC-producing strain with no inhibitor added and the lowest MIC is the MIC for the vector-alone strain, which corresponds to complete inhibition of KPC. As a given MIC is directly related to the β-lactamase activity, PV50 might be considered the concentration of a BLI that is required to achieve half-effect of inhibition of β-lactamase activity (in whole cells) to hydrolyze an antibiotic of interest. […] However, the accurate determination of PV50 requires the MIC range to be relatively wide.
as §4
(§6) […]
(§7) […]

[4] = system: P. aeruginosa PAM1154 carrying KPC-2::D179Y (PAM4639); experiment: as above; format: cell-based, Pseudomonas aeruginosa; conditions: for Beta-lactam MIC in the presence of BLI: PAM4639 KPC-2 D179Y
From the text: as §5, §4, §6, §7

Structure (SMILES): CC(C)(O/N=C(\C(=O)N[C@@H]1C(=O)N2C(C(=O)[O-])=C(C[n+]3ccccc3)CS[C@H]12)c1csc(N)n1)C(=O)O [Ceftazidime, ceftazidime]
- predicted Km lower than that of wild-type KPC-2 (KPC-2 D179Y; KPC-2 D179Y): more than 2,000 fold
- Km (KPC-2 D179Y; KPC-2 D179Y, calculated by division of kcat by kcat/Km, read-out: predicted Km): ~1000 nM
- kcat (KPC-2 D179Y; substrate hydrolysis by purified KPC-2 D179Y): 0.0088 ± 0.0003 s⁻¹
- Km (KPC-2 D179Y; substrate hydrolysis by purified KPC-2 D179Y, read-out: Km): < 5000 nM
- kcat (KPC-2): >2.6 s⁻¹
- Km (KPC-2 L169P): 27 ± 6 µM
- kcat (KPC-2 L169P): 0.093 ± 0.009 s⁻¹

Structure (SMILES): CCN1CCN(C(=O)N[C@@H](C(=O)N[C@@H]2C(=O)N3[C@@H]2SC(C)(C)[C@@H]3C(=O)O)c2ccccc2)C(=O)C1=O [Piperacillin, piperacillin]
- reduction of MIC vs wild-type KPC-2 strain ([1]; D179Y strain): 4 fold
- MIC ([1]; Pseudomonas aeruginosa, PAM4639, pUCP24-KPC-2::D179Y, drug alone): 32 µg/mL
- reduction of MIC vs wild-type KPC-2 strain ([2]; L169P strain): 8 fold
- MIC ([2]; Pseudomonas aeruginosa, PAM4751, pUCP24-KPC-2::L169P, drug alone): 16 µg/mL
- Antibiotic MIC with avibactam at 4 μg/ml ([3]; PAM4751 KPC-2::L169P, avibactam 4 μg/ml): 0.5 µg/mL
- Antibiotic MIC, No BLI ([3]; PAM4751 KPC-2::L169P, no BLI): 16 µg/mL
- Beta-lactam MIC in the presence of BLI ([3]; avibactam 0 µg/ml): 16 µg/mL
- Beta-lactam MIC in the presence of BLI ([3]; avibactam 0.008 µg/ml): 16 µg/mL
- Beta-lactam MIC in the presence of BLI ([3]; avibactam 0.031 µg/ml): 16 µg/mL
- Beta-lactam MIC in the presence of BLI ([3]; avibactam 0.06 µg/ml): 16 µg/mL
- Beta-lactam MIC in the presence of BLI ([3]; avibactam 0.5 µg/ml): 4 µg/mL
- Beta-lactam MIC in the presence of BLI ([3]; avibactam 1 µg/ml): 2 µg/mL
- Beta-lactam MIC in the presence of BLI ([3]; avibactam 2 µg/ml): 1 µg/mL
- Beta-lactam MIC in the presence of BLI ([3]; avibactam 4 µg/ml): 0.5 µg/mL
- Beta-lactam MIC in the presence of BLI ([3]; avibactam 64 µg/ml): 0.03 µg/mL
- Beta-lactam MIC in the presence of BLI ([3]; vaborbactam 0 µg/ml): 16 µg/mL
- Beta-lactam MIC in the presence of BLI ([3]; vaborbactam 0.008 µg/ml): 16 µg/mL
- Beta-lactam MIC in the presence of BLI ([3]; vaborbactam 0.031 µg/ml): 16 µg/mL
- Beta-lactam MIC in the presence of BLI ([3]; vaborbactam 0.06 µg/ml): 16 µg/mL
- Beta-lactam MIC in the presence of BLI ([3]; vaborbactam 0.5 µg/ml): 4 µg/mL
- Beta-lactam MIC in the presence of BLI ([3]; vaborbactam 1 µg/ml): 1 µg/mL
- Beta-lactam MIC in the presence of BLI ([3]; vaborbactam 2 µg/ml): 0.5 µg/mL
- Antibiotic MIC with avibactam at 4 μg/ml ([4]; PAM4639 KPC-2::D179Y, avibactam 4 μg/ml): 1 µg/mL
- Antibiotic MIC, No BLI ([4]; PAM4639 KPC-2::D179Y, no BLI): 32 µg/mL
- Antibiotic MIC with vaborbactam at 8 μg/ml ([4]; PAM4639 KPC-2::D179Y, vaborbactam 8 μg/ml): 0.25 µg/mL
- Beta-lactam MIC in the presence of BLI ([4]; avibactam 0 µg/ml): 32 µg/mL
- Beta-lactam MIC in the presence of BLI ([4]; avibactam 0.008 µg/ml): 32 µg/mL
- Beta-lactam MIC in the presence of BLI ([4]; avibactam 0.031 µg/ml): 32 µg/mL
- Beta-lactam MIC in the presence of BLI ([4]; avibactam 0.06 µg/ml): 32 µg/mL
- Beta-lactam MIC in the presence of BLI ([4]; avibactam 0.5 µg/ml): 8 µg/mL
- Beta-lactam MIC in the presence of BLI ([4]; avibactam 1 µg/ml): 2 µg/mL
- Beta-lactam MIC in the presence of BLI ([4]; avibactam 2 µg/ml): 2 µg/mL
- Beta-lactam MIC in the presence of BLI ([4]; avibactam 4 µg/ml): 1 µg/mL
- Beta-lactam MIC in the presence of BLI ([4]; avibactam 8 µg/ml): 0.5 µg/mL
- Beta-lactam MIC in the presence of BLI ([4]; vaborbactam 0 µg/ml): 32 µg/mL
- Beta-lactam MIC in the presence of BLI ([4]; vaborbactam 0.008 µg/ml): 32 µg/mL
- Beta-lactam MIC in the presence of BLI ([4]; vaborbactam 0.031 µg/ml): 32 µg/mL
- Beta-lactam MIC in the presence of BLI ([4]; vaborbactam 0.06 µg/ml): 32 µg/mL
- Beta-lactam MIC in the presence of BLI ([4]; vaborbactam 0.5 µg/ml): 4 µg/mL
- Beta-lactam MIC in the presence of BLI ([4]; vaborbactam 1 µg/ml): 1 µg/mL
- Beta-lactam MIC in the presence of BLI ([4]; vaborbactam 2 µg/ml): 0.5 µg/mL
